Anti-infective test results gathered from many reports (values: NIAID ChemDB through PubChem).

Common to all: tests in culture; organism: HIV-1

Conditions beyond the fields shown may differ between rows. Blank or dashed fields: not listed here. ECn: concentration that inhibits the pathogen or its effect by n%.

structure,method,strain,cells,endpoint,conditions,changes,value
C1CNCCNCCCN(CCCN2CCCNCCNCCCNCC2)CCNC1,cytopathic effect / MTT,JM2763-resistant (gp120 S274R Q278H I288V A297T),MT-4,EC50,,,127.5 µg/mL
Cc1ccc(-c2ccc3c(c2)C=C(C(=O)Nc2ccc(C[N+](C)(C)C4CCOCC4)cc2)CCC3)cc1,p24,NL4-3 X4,PBMC,EC50,,,>1 µM
C[C@H](Cn1cnc2c(N)ncnc21)OCP(=O)(O)O,p24,WEJO Clinical isolates,PBMC,EC50,,,<0.005 µM
CC(C)(C)NC(=O)[C@@H]1C[C@@H]2CCCC[C@@H]2CN1C[C@@H](O)[C@H](Cc1ccccc1)NC(=O)[C@H](CC(N)=O)NC(=O)c1ccc2ccccc2n1,p24,NL4-3,MT-4,EC50,,PR-M46I L63P V82T,<0.025 µM
Nc1nc2c(ncn2[C@H]2C=C[C@@H](CO)C2)c(=O)[nH]1,cytopathic effect / XTT,IIIB,MT-2,EC50,,,1.3 µM
NC(=S)c1c(N)n(COC(CO)CO)c2ncnc(N)c12,cytopathic effect / XTT,,MT-2 + MT2,EC50,,,>320 µM
CCc1cc(CCc2nc3c(Cl)ccc(Cl)c3o2)c(=S)[nH]c1C,p24,IIIB,H9,EC50,,,<0.1 µM
C[C@H](Cn1cnc2c(N)ncnc21)OCP(=O)(O)O,p24 / ELISA / antigen,UG-92-031 (subtype A),PBMCs,EC50,4 d,,1.8 µM
CONc1nc(=O)n([C@H]2C[C@H](N=[N+]=[N-])[C@@H](CO)O2)cc1C,cytopathic effect / MTT,LAV-Bru,CEM-C113 + CEM/C113,EC50,,,23.6 µM
O=c1oc2c(CN(CCO)CCO)c(O)ccc2cc1-c1nc2ccccc2s1,p24 / ELISA / antigen,IIIB,C8166,EC50,,,4.33 µM
Nc1ccn([C@@H]2CC[C@H](CO)O2)c(=O)n1,,,CEM,EC50,,,5 µM
Cc1cn([C@H]2C[C@H](N=[N+]=[N-])[C@@H](CO)O2)c(=O)[nH]c1=O,p24 / ELISA / antigen,LJM (subtype B),PBMCs,EC50,4 d,,0.33 µM
CC(C)=CCN1Cc2cc(Cl)cc3[nH]c(=S)n(c23)C[C@@H]1C,MTT,IIIB,MT-4,EC50,,,0.0007 µg/mL
C#Cc1ccc(Nc2nccc(Oc3c(C)cc(-c4cn(Cc5ccccc5)nn4)cc3C)n2)cc1,MTT,IIIB,MT-4,EC50,,K103N,0.22 µM
CCc1cc(CCc2nc3ccccc3o2)c(=O)[nH]c1C,p24,IIIB,H9,EC95,,,0.1 µM
C#Cc1ccc(Nc2nccc(Oc3c(C)cc(-c4cn(-c5ccc(C(=O)OC)cc5)nn4)cc3C)n2)cc1,MTT,IIIB,MT-4,EC50,,K103N,0.022 µM
Cc1cc(C)cc(C(=O)c2cc(Cl)ccc2OCCN2CCC(=O)NC2=O)c1,RT activity,,,EC50,pseudotyped,K103N,3.6 µM
C=C1[C@H](CO)[C@@H](O)C[C@@H]1n1cnc2c(=O)[nH]c(N)nc21,MTT,IIIB,MT-4,EC50,,K103N,0.003 µM
CC[C@@H](C)[C@H](C(=O)O)N1C[C@H](CN2CCC(c3cc(Cc4ccc(OCC(F)(F)F)cc4)nn3CC)CC2)[C@@H](c2cccc(F)c2)C1,β-galactosidase,BaL,HeLa,EC50,50% human serum,,<0.1 µM
Cc1ccnc2c1NC(=O)c1cccnc1N2C1CC1,MTT,IIIB,MT-4,EC50,,F227L and V106A,>15.02 µM
CC[C@@H](C)[C@H](C(=O)O)N1C[C@H](CN2CCC(c3cc(Cc4cccc5ccccc45)nn3CC)CC2)[C@@H](c2cccc(F)c2)C1,β-galactosidase,BaL,HeLa,EC90,,,<0.00014 µM
C#Cc1ccc(Nc2nccc(Oc3c(C)cc(-c4cn(CC(=O)Nc5ccc(Br)cc5)nn4)cc3C)n2)cc1,MTT,IIIB,MT-4,EC50,,L100I,>19.78 µM
N#Cc1c(Br)n(COC(CO)CO)c2ncnc(N)c12,cytopathic effect / XTT,,MT-2 + MT2,EC50,,,300 µM
Cc1cn([C@H]2C[C@H](N=[N+]=[N-])[C@@H](CO)O2)c(=O)[nH]c1=O,MTT,ADP141 (RT D67N K70N T215F K219Q),MT-4,EC50,,RT-D67N K70N T215F K219Q,0.02 µg/mL
OC[C@H]1O[C@@H](n2cnc3cc(Cl)c(Cl)cc32)[C@H](O)[C@@H]1O,luciferase,NL4-3 Recombinant VSV-pseudotyped,HeLa,EC50,,,<50 µM
O=C1O[C@H]2[C@@H]3OC(=O)c4cc(O)c(O)c(O)c4-c4c(cc(O)c(O)c4O)C(=O)OC[C@H]2O[C@@H](OC(=O)c2cc(O)c(O)c(O)c2)[C@@H]3OC(=O)c2cc(O)c(O)c3c2[C@@H]2C1=CC(=O)[C@](O)(O3)C2(O)O,,NNRTI-resistant (RT L100I) ARP1016,MAGI,EC50,,RT-L100I,1.62 µg/mL
Cc1[nH]c(=O)c(F)cc1Cn1cnc(C(F)(F)C(F)F)c(Oc2cc(C(F)F)cc(C#N)c2C)c1=O,RT activity / fluorescence,,,EC50,,K103N,1.899 µM
CC[C@@H](C)[C@H](C(=O)O)N1C[C@H](CN2CCC(c3cc(Cc4cc(C(F)(F)F)cc(C(F)(F)F)c4)nn3CC)CC2)[C@@H](c2cccc(F)c2)C1,β-galactosidase,BaL,HeLa,EC50,,,<0.033 µM
Cc1cn([C@H]2C[C@H](N=[N+]=[N-])[C@@H](CO)O2)c(=O)[nH]c1=O,luciferase,NL4-3,ACH2 + TZM-bl,EC90,,,0.0148 µM
CCOc1ccc(Cc2cc(C3CCN(C[C@H]4CN([C@@H](C(=O)O)C(C)(C)C)C[C@@H]4c4cccc(F)c4)CC3)n(CC)n2)cc1F,β-galactosidase,BaL,HeLa,EC90,,,<0.00014 µM
Cc1cn([C@H]2C[C@H](N=[N+]=[N-])[C@@H](CO)O2)c(=O)[nH]c1=O,cytopathic effect / XTT,,MT-2 + MT2,EC50,,,0.002 µM
COc1ccc(-c2oc3c4c(cc(O)c3c(=O)c2O)OC(C)(C)CC4)cc1,PCR,BK132,CEMx174,EC50,,,3.27 µM
CC(C)c1c(COC(N)=O)cn(Cc2ccncc2)c1Sc1ccccc1,cytopathic effect / MTT,IIIB,MT-4,EC50,,,1.4 µM
Cc1cc(C#N)cc(C)c1Oc1nc(Nc2ccc(C#N)cc2)nc(N)c1Br,luciferase,Clinical isolate,HEK293T,EC50,clinical isolate,N348I,0.00452 µM
CCn1nc(Cc2ccc(F)cc2)cc1C1CCN(C[C@H]2CN([C@@H](C(=O)O)C3CCCCC3)C[C@@H]2c2cccc(F)c2)CC1,β-galactosidase,BaL,HeLa,EC50,,,<0.033 µM
NC(=S)c1c(N)n(COCCO)c2ncnc(N)c12,cytopathic effect / XTT,,MT-2 + MT2,EC50,,,>350 µM
C#Cc1ccc(Nc2nccc(Oc3c(C)cc(-c4cn(CC(=O)Nc5ccc(S(C)(=O)=O)cc5)nn4)cc3C)n2)cc1,MTT,IIIB,MT-4,EC50,,K103N,1.04 µM
CC(C)=CCOc1c2occc2cc2ccc(=O)oc12,luciferase,NL4-3 Recombinant,MT-2,EC50,,,<25 µM
O=C1N(Cc2ccc(CO)cc2)[C@H](Cc2ccccc2)[C@H](O)[C@@H](O)[C@@H](Cc2ccccc2)N1Cc1ccc(CO)cc1,p24,NL4-3,MT-4,EC50,,PR-L10R,<0.2 µM
CC(C)c1c(CO)cn(Cc2ccncc2)c1Sc1ccccc1,p24,,C8166,EC90,,RT-Y181C,>100 µM
Cc1ccnc2c1NC(=O)c1cccnc1N2C1CC1,luciferase,SF162,ACH2 + TZM-bl,EC50,,,0.02814 µM
CC(C)c1c(COC(N)=O)cn(Cc2ccncc2)c1Sc1cc(Cl)cc(Cl)c1,cytopathic effect / MTT,IIIB,MT-4,EC50,,,0.12 µM
Nc1ncnc2c1ncn2[C@@H]1O[C@H](OCP(=O)(O)O)C=C1F,p24 / ELISA / antigen,BR-92-025 (subtype C),PBMCs,EC50,4 d,,5.1 µM
CCOc1ccc(Cc2cc(C3CCN(C[C@H]4CN([C@@H](C(=O)O)C5CCCCC5)C[C@@H]4c4cccc(F)c4)CC3)n(CC)n2)cc1,β-galactosidase,BaL,HeLa,EC50,50% human serum,,<0.033 µM
Nc1nc(=O)n([C@H]2CS[C@@H](CO)O2)cc1F,RT activity,LAI,PBMC,EC50,,,0.03 µM
CCn1nc(Cc2ccc(S(C)(=O)=O)cc2)cc1C1CCN(C[C@H]2CN([C@@H](C(=O)O)C3CCCCC3)C[C@@H]2c2cccc(F)c2)CC1,β-galactosidase,BaL,HeLa,EC50,50% human serum,,<0.011 µM
CC(C)(C)NC(=O)[C@@H]1C[C@@H]2CCCC[C@@H]2CN1C[C@@H](O)[C@H](Cc1ccccc1)NC(=O)[C@H](CC(N)=O)NC(=O)c1ccc2ccccc2n1,p24,NL4-3 X4,PBMC,EC50,,,0.01 µM
CC(=O)c1ccc(C)cc1NC(C(N)=O)c1c(Cl)cccc1Cl,cytopathic effect / MTT,NL4-3,MT-4,EC50,,,0.0005 µg/mL
NC(=O)c1c(Br)n(COC(CO)CO)c2ncnc(N)c12,cytopathic effect / XTT,,MT-2 + MT2,EC50,,,>280 µM
O=C1N(Cc2ccc(CO)cc2)[C@H](Cc2ccccc2)[C@H](O)[C@@H](O)[C@@H](Cc2ccccc2)N1Cc1ccc(CO)cc1,plaque count / virus yield,Clinical isolate E,MT-2,EC90,,,0.07 µg/mL
Oc1ccc(/C=C/c2cc(O)cc(O)c2)cc1,p24,SF162,MDM,EC50,,,~10 µM
Cc1c(O)cccc1C(=O)N[C@@H](CSc1ccccc1)[C@H](O)CN1C[C@H]2CCCC[C@H]2C[C@H]1C(=O)NC(C)(C)C,p24,BAL R5,PBMC,EC50,,,0.012 µM
C#Cc1ccc(Nc2nccc(Oc3c(C)cc(-c4cn(CCCC(=O)OC)nn4)cc3C)n2)cc1,MTT,IIIB,MT-4,EC50,,L100I,7.1 µM
CC(C)c1c(CO)cn(Cc2ccncc2)c1Sc1cc(Cl)cc(Cl)c1,cytopathic effect / MTT,,,EC90,,RT-K103N,2.3 µM
N#Cc1c(N)n([C@@H]2O[C@H](CO)[C@@H](O)[C@H]2O)c2ncnc(N)c12,cytopathic effect / XTT,,MT-2 + MT2,EC50,,,>100 µM
C#Cc1ccc(Nc2nccc(Oc3c(C)cc(-c4cn(Cc5ccccc5[N+](=O)[O-])nn4)cc3C)n2)cc1,MTT,IIIB,MT-4,EC50,,F227L and V106A,>7.22 µM
Cc1cc(C)cc(C(=O)c2cc(Cl)ccc2OCCN2C(=O)NC(=O)C(C)C2C)c1,RT activity,,,EC50,pseudotyped,K103N,1.6 µM
CCn1nc(Cc2cccc(C#N)c2)cc1C1CCN(C[C@H]2CN([C@@H](C(=O)O)C(C)C)C[C@@H]2c2cccc(F)c2)CC1,β-galactosidase,BaL,HeLa,EC50,,,<0.0037 µM
[N-]=[N+]=N[C@H]1C[C@H](n2ccc(=S)[nH]c2=O)O[C@@H]1CO,cytopathic effect / MTT,LAV-Bru,CEM-C113 + CEM/C113,EC50,,,1.5 µM
CCO/N=C(\c1ccc(Br)cc1)C1CCN(C2(C)CCN(C(=O)c3c(C)cc[n+]([O-])c3C)CC2)CC1,p24,JR-FL R5,PBMC,EC50,,,0.002 µM
NC(=O)c1c(Br)n(COCCO)c2ncnc(N)c12,cytopathic effect / XTT,,MT-2 + MT2,EC50,,,>300 µM
O=c1[nH]cnc2c1ncn2[C@H]1CC[C@@H](CO)O1,p24,8564 CLADE D CLADE D,PBMC,EC50,,,1.13 µM
COc1cc(C(c2ccc3c(c2)OCO3)C(C(=O)O)C(CO)CO)ccc1O,MTT,IIIB,C8166,EC50,,,2.97 µg/mL
CCc1c(Sc2ccccn2)n(COCc2ccccc2)c(=O)[nH]c1=O,XTT,,T4,EC50,,,0.0009 µM
Nc1nc(NC2CC2)c2ncn([C@H]3C=C[C@@H](CO)C3)c2n1,p24,WEJO,PBMC,EC50,,,0.06 µM
CC[C@@H](C)[C@H](C(=O)O)N1C[C@H](CN2CCC(c3cc(Cc4ccc(C(F)(F)F)cc4)nn3CC)CC2)[C@@H](c2cccc(F)c2)C1,β-galactosidase,BaL,HeLa,EC50,50% human serum,,<0.1 µM
O=c1[nH]cnc2c1ncn2[C@H]1CC[C@@H](CO)O1,MTT,13MB1 (TIBO-resistant RT L100I),MT-4,EC50,,RT-L100I,0.4 µg/mL

For reference, 10 entries again:

| structure | method | strain | cells | endpoint | conditions | changes | value |
|---|---|---|---|---|---|---|---|
| O=c1oc2c(CN(CCO)CCO)c(O)ccc2cc1-c1nc2ccccc2s1 | p24 / ELISA / antigen | IIIB | C8166 | EC50 |  |  | 4.33 µM |
| Cc1ccc(-c2ccc3c(c2)C=C(C(=O)Nc2ccc(C[N+](C)(C)C4CCOCC4)cc2)CCC3)cc1 | p24 | NL4-3 X4 | PBMC | EC50 |  |  | >1 µM |
| Nc1nc(NC2CC2)c2ncn([C@H]3C=C[C@@H](CO)C3)c2n1 | p24 | WEJO | PBMC | EC50 |  |  | 0.06 µM |
| Cc1cc(C)cc(C(=O)c2cc(Cl)ccc2OCCN2CCC(=O)NC2=O)c1 | RT activity |  |  | EC50 | pseudotyped | K103N | 3.6 µM |
| CC[C@@H](C)[C@H](C(=O)O)N1C[C@H](CN2CCC(c3cc(Cc4ccc(OCC(F)(F)F)cc4)nn3CC)CC2)[C@@H](c2cccc(F)c2)C1 | β-galactosidase | BaL | HeLa | EC50 | 50% human serum |  | <0.1 µM |
| CC(C)(C)NC(=O)[C@@H]1C[C@@H]2CCCC[C@@H]2CN1C[C@@H](O)[C@H](Cc1ccccc1)NC(=O)[C@H](CC(N)=O)NC(=O)c1ccc2ccccc2n1 | p24 | NL4-3 | MT-4 | EC50 |  | PR-M46I L63P V82T | <0.025 µM |
| Oc1ccc(/C=C/c2cc(O)cc(O)c2)cc1 | p24 | SF162 | MDM | EC50 |  |  | ~10 µM |
| OC[C@H]1O[C@@H](n2cnc3cc(Cl)c(Cl)cc32)[C@H](O)[C@@H]1O | luciferase | NL4-3 Recombinant VSV-pseudotyped | HeLa | EC50 |  |  | <50 µM |
| C#Cc1ccc(Nc2nccc(Oc3c(C)cc(-c4cn(CC(=O)Nc5ccc(S(C)(=O)=O)cc5)nn4)cc3C)n2)cc1 | MTT | IIIB | MT-4 | EC50 |  | K103N | 1.04 µM |
| C#Cc1ccc(Nc2nccc(Oc3c(C)cc(-c4cn(CC(=O)Nc5ccc(Br)cc5)nn4)cc3C)n2)cc1 | MTT | IIIB | MT-4 | EC50 |  | L100I | >19.78 µM |